A mixed list of measured activities; the numbers were collected in NIAID ChemDB.

Common to all: target-level tests; agent: Hepatitis C virus

ICn is the concentration giving n% inhibition.

smiles,measure,protein,tested at,result
O=C(N[C@@H](CO)C(=O)O)c1cnn2c(C3CCCCC3)c(-c3ccc(OCc4ccccc4)cc3)cnc12,IC50,RNA-dependent RNA polymerase,,1–10 µM
O=C(Nc1cccc(Cl)c1)Nc1cscc1-c1nc(C(=O)O)c(O)c(=O)[nH]1,IC50,HCV polymerase,,<25 µM
CNC(=O)c1c(-c2ccc(F)cc2)oc2cc(N(C)S(C)(=O)=O)c(OCC(=O)Nc3nc(C)c(C)s3)cc12,IC50,Nonstructural protein 5B,,≤0.5 µM
O=C(O)c1ccc2c(c1)nc(-c1ccc3nc(-c4ccc(Oc5ccccc5)cc4)ccc3c1)n2C1CCCCC1,inhibition,NS5B polymerase,100 µM,99.57%
O=C(O)c1cc2nc(-c3ccc(OCc4ccccc4)cc3)c(CCCc3ccccc3)c(=O)n2[nH]1,IC50,RNA-dependent RNA polymerase,,1–10 µM
N#Cc1ccccc1S(=O)(=O)Nc1ccccc1-c1nc(C(=O)O)c(O)c(=O)[nH]1,IC50,HCV polymerase,,<100 µM
CNC(=O)c1c(-c2ccc(F)cc2)oc2cc(CO)c(OC(C)C)cc12,IC50,Nonstructural protein 5B,,≤0.5 µM
O=C(O)c1cc2nc(-c3ccc(Oc4ccccc4)cc3)c(-c3ccccc3)cn2n1,IC50,RNA-dependent RNA polymerase,,1–10 µM
CCCC(=O)N(Cc1ccccc1Cl)c1cc(-c2ccccc2)sc1C(=O)O,IC50,NS3 ATPase,,<5 µM
O=C(O)c1ccc2c(c1)nc(-c1ccc3nc(-c4cc(O)ccc4-c4ccc(Cl)cc4)ccc3c1)n2C1CCCCC1,inhibition,NS5B polymerase,100 µM,101%
O=C(NCc1cncs1)Nc1cscc1-c1nc(C(=O)O)c(O)c(=O)[nH]1,IC50,HCV polymerase,,<25 µM
O=C(O)c1ccc2c(c1)nc(-c1ccc3nc(-c4ccccn4)ccc3c1)n2C1CCCCC1,inhibition,NS5B polymerase,33 µM,93.85%
COC(COC(=O)Nc1ccsc1-c1nc(C(=O)O)c(O)c(=O)[nH]1)c1ccccc1,IC50,HCV polymerase,,<25 µM
Fc1ccc(-c2cnc3c(-c4nn[nH]n4)cnn3c2C2CCCCC2)cc1F,IC50,RNA-dependent RNA polymerase,,1–10 µM
O=C(O)C1C[C@@H](O)CN1C(=O)c1ccc2c(c1)nc(-c1ccc3nc(-c4ccccc4)cnc3c1)n2C1CCCCC1,inhibition,NS5B polymerase,100 µM,86.78%
CCN(c1cc2oc(-c3ccc(F)cc3)c(C(=O)NC)c2cc1O)S(C)(=O)=O,IC50,Nonstructural protein 5B,,≤0.5 µM
O=C(N[C@H](Cc1ccc(O)cc1)C(=O)O)c1cnn2c(C3CCCCC3)c(-c3ccc(F)cc3)cnc12,IC50,RNA-dependent RNA polymerase,,<1 µM
CNC(=O)c1c(-c2ccc(F)cc2)oc2cc(N3CCOCC3)c(OC)cc12,IC50,Nonstructural protein 5B,,≤0.5 µM
Cc1ccccc1S(=O)(=O)Nc1cc(-c2ccc(Cl)cn2)sc1C(=O)O,IC50,NS3 ATPase,,<5 µM
CC(C)N(C(=O)c1ccc2cc(-c3nc4cc(C(=O)O)ccc4n3C3CCCCC3)ccc2n1)c1ccc(Cl)cc1,inhibition,NS5B polymerase,33 µM,99.13%
O=C1NC(=O)/C(=C/c2cnn3c(C4CCCCC4)c(-c4ccc(OCc5ccccc5)cc4)cnc23)S1,IC50,RNA-dependent RNA polymerase,,>10 µM
O=C(NCCN1CCN(C2CCCCC2)CC1)Nc1cscc1-c1nc(C(=O)O)c(O)c(=O)[nH]1,IC50,HCV polymerase,,<25 µM
CCc1ccc(-c2cc(NS(=O)(=O)c3ccccc3C)c(C(=O)O)s2)cc1,IC50,NS3 ATPase,,<5 µM
Cc1cc(-c2ccccc2-c2ccc(Cl)cc2)nc2ccc(-c3nc4cc(C(=O)O)ccc4n3C3CCCCC3)cc12,inhibition,NS5B polymerase,33 µM,98.59%
Cc1ccc(C(=O)N(c2cc(-c3cccc(C(F)(F)F)c3)sc2C(=O)O)C(C)C)cc1,IC50,NS3 ATPase,,<5 µM
O=C(NCCS(=O)(=O)O)c1ccc2c(c1)nc(-c1ccc3nc(-c4ccccc4)cnc3c1)n2C1CCCCC1,inhibition,NS5B polymerase,33 µM,74.09%
CS(=O)(=O)c1ccc(-c2cc(NC(=O)c3ccc(Cl)cc3Cl)c(C(=O)O)s2)cc1,IC50,NS3 ATPase,,<5 µM
O=C(O)c1cc2nc(-c3ccc(F)cc3)cc(-c3ccc(F)cc3)n2n1,IC50,RNA-dependent RNA polymerase,,>10 µM
CCC(=O)N(Cc1ccccc1C)c1cc(-c2ccccc2)sc1C(=O)O,IC50,NS3 ATPase,,5–20 µM
c1ccc(Oc2cccc(-c3cnc4c(-c5nn[nH]n5)cnn4c3C3CCCCC3)c2)nc1,IC50,RNA-dependent RNA polymerase,,1–10 µM
Cc1ccc(C(=O)Nc2ccsc2-c2nc(C(=O)O)c(O)c(=O)[nH]2)cc1Cl,IC50,HCV polymerase,,<25 µM
O=C(O)c1ccc2c(c1)nc(-c1ccc3nc(-c4cccnc4)ccc3c1)n2C1CCCCC1,inhibition,NS5B polymerase,100 µM,89.31%
Cc1ccccc1S(=O)(=O)Nc1cc(-c2cccnc2)sc1C(=O)O,IC50,NS3 ATPase,,<5 µM
O=C(NCc1cccc(Cl)c1)Nc1cscc1-c1nc(C(=O)O)c(O)c(=O)[nH]1,IC50,HCV polymerase,,<25 µM

Repeating the final 2 entries:

smiles | measure | protein | tested at | result
Cc1ccccc1S(=O)(=O)Nc1cc(-c2cccnc2)sc1C(=O)O | IC50 | NS3 ATPase |  | <5 µM
O=C(NCc1cccc(Cl)c1)Nc1cscc1-c1nc(C(=O)O)c(O)c(=O)[nH]1 | IC50 | HCV polymerase |  | <25 µM

Neighbouring rows are from separate reports. Inhibition is in % at the dose shown (toxicity tests: loss of growth or viability). Two numbers with a dash give a range or band. An empty or dashed field is not shown.